Compound potency records, mixed from different reports. Data source: NIAID ChemDB in PubChem.

Common to all: whole-cell or culture tests; agent: Cryptococcus neoformans

An empty or dashed field is not shown. Zones are inhibition diameters on agar. A number after MIC or MFC names an inhibition level or a share of isolates. Percent inhibition refers to the dose given; in toxicity tests it is the harm to the cells. Conditions beyond the fields shown may differ between rows. ECn is the concentration giving n% inhibition of infection, replication or growth.

structure	conditions	measure	method	strain or isolate	tested at	result
O=C1/C(=C/c2ccc(O)c(O)c2)CCc2ccccc21		MIC		93/V		100 µg/mL
CCOC(=O)CN(CCCOc1ccc(Br)cc1)CC(O)(Cn1cncn1)c1ccc(F)cc1F		inhibition			1 µg/mL	80%
CC1=C(O)C(=O)C=C(O)C1=O		zone	agar diffusion		100 µM	0 mm
COc1ccc(/C=C2\CSc3ccc(Cl)cc3C2=O)cc1OC		MIC		Farwania		6 µg/mL
CC(C)(C)NC(=O)[C@@H]1CN(Cc2cccnc2)CCN1C[C@@H](O)C[C@@H](Cc1ccccc1)C(=O)N[C@H]1c2ccccc2C[C@H]1O	72 h	inhibition	colony count	H99	10 µM	28%
CC(C(O)(Cn1cncn1)c1ccc(F)cc1F)S(C)(=O)=O		EC50		R717 (AZOLE-R)		3.5 µM
O=C1/C(=C/c2ccccc2)CCc2ccccc21		MIC		93/V		25 µg/mL
NCCCC[C@H](NC(=O)[C@H](CCCN=C(N)N)NC(=O)[C@H](CCCN=C(N)N)NC(=O)[C@H](CCCCN)NC(=O)[C@H](CCCCN)NC(=O)[C@@H](N)CCCCN)C(=O)N[C@@H](CCCN=C(N)N)C(=O)O		inhibition		ATCC 32264	100 µM	14%
C=CC(C)(C)c1cc(C2CC(=O)c3c(cc(O)c(CC=C(C)C)c3O)O2)c(O)cc1O		zone	agar diffusion / agar	CSF 20772	2 mg/mL	12 mm
COc1ccc2c(c1)C(=O)/C(=C/c1ccc3c(c1)CC3)CO2		MIC		93/V		25 µg/mL
OC(Cn1cncn1)(Cn1cncn1)c1ccc(F)cc1F		inhibition	colony count	Var. neoformans (isolate 45645)	1 µg/mL	90%
CC1(C)O[C@H]2[C@H](O)[C@@H](N=[N+]=[N-])C=C(c3ccc(C=O)cc3)[C@H]2O1		inhibition	broth dilution / turbidity	ATCC 32264	15.6 µg/mL	0%
CCOc1ccc(/C=C2\CCc3ccccc3C2=O)cc1		MIC		Farwania		12.5 µg/mL
CC(C)(C)OC(=O)N1CCC(n2cc(-c3noc(=O)[nH]3)nn2)CC1		inhibition	agar	NCIM576	200 µg/mL	0%
O=C1N[C@H](Cc2ccccc2)C(=O)N2CCC[C@H]12		zone	agar diffusion / agar		16 µg/mL	31 mm
CN[C@H]1CC[C@@H](c2ccc(Cl)c(Cl)c2)c2ccccc21		MFC	broth dilution	3-17		8 µg/mL
Cn1nc(Cc2ccc(Cl)cc2)c2ccccc2c1=O		MIC	broth dilution	Clinical isolate (IM 000319)		125 µg/mL
O=C1/C(=C/c2ccccc2O)COc2ccccc21		MIC		Farwania		12.5 µg/mL
C[C@@H]1[C@H](O)[C@@H](C)/C=C/C=C/C=C/C=C/C=C/C=C/C=C/[C@H](O[C@@H]2O[C@H](C)[C@@H](O)[C@H](N)[C@@H]2O)C[C@@H]2O[C@](O)(C[C@@H](O)C[C@@H](O)[C@H](O)CC[C@@H](O)C[C@@H](O)CC(=O)O[C@H]1C)C[C@H](O)[C@H]2C(=O)O		MIC	broth dilution	Clinical isolate (IM 983040)		0.13 µg/mL
Oc1ccccc1N=Cc1ccccc1		MIC99		28JF		8 µg/mL
COc1ccc(/C=C2\CS(=O)c3ccccc3C2=O)cc1		MIC		93/V		25 µg/mL
Oc1ccccc1C=Nc1ccccc1O		MIC	broth dilution	GM		5.3 µg/mL
O=C1/C(=C/c2ccc(Cl)cc2)CSc2ccccc21		MIC		Farwania		12.5 µg/mL
CCOC(=O)c1cnc(NCCCCNc2ccnc3cc(Cl)ccc23)nc1C		MIC99		ATCC 28957		1.4 µg/mL
CCCCc1oc2ccccc2c1C(=O)c1cc(I)c(OCCN(CC)CC)c(I)c1		inhibition		JEC21	5 µM	100%
CC1=Cc2c(CO)c(O)c(C)c(O)c2CO1		zone	agar diffusion	ATCC90112	100 µM	13 mm
COc1ccc(/C=C2\CSc3ccc(OC)cc3C2=O)cc1		MIC		93/V		25 µg/mL

2 of the rows above, restated:

structure	conditions	measure	method	strain or isolate	tested at	result
C[C@@H]1[C@H](O)[C@@H](C)/C=C/C=C/C=C/C=C/C=C/C=C/C=C/[C@H](O[C@@H]2O[C@H](C)[C@@H](O)[C@H](N)[C@@H]2O)C[C@@H]2O[C@](O)(C[C@@H](O)C[C@@H](O)[C@H](O)CC[C@@H](O)C[C@@H](O)CC(=O)O[C@H]1C)C[C@H](O)[C@H]2C(=O)O		MIC	broth dilution	Clinical isolate (IM 983040)		0.13 µg/mL
O=C1/C(=C/c2ccccc2)CCc2ccccc21		MIC		93/V		25 µg/mL